{
  "source": "paper PMC13183915",
  "about": "“A platinum butterfly effect: small changes turn an anticancer drug into a non-toxic metalloantibiotic with in vivo efficacy” (npj Antimicrobials and Resistance, 2026)",
  "tested_on": "MRSA",
  "test": "Antibiotic uptake assay (ICP-MS of cellular Pt)",
  "assay_type": "cell-based, S. aureus",
  "data": [
    {"smiles": "C1=C\\CC/C=C\\CC/1.[Cl][Pt][Cl]", "note": "[Pt1]", "values": [
      {"measurement": "Percent Pt content of MRSA cell lysate (% Pt)", "setting": "60 min treatment, 1.56 µM Pt1, 6.25 µM Pt8, 100 µM CisPt", "value": "1.5 ± 0.3", "unit": "%"},
      {"measurement": "absolute amounts of platinum in bacteria after treatment", "setting": "MRSA, 1.56 µM Pt1, 6.25 µM Pt8, 100 µM CisPt", "value": 3.5, "unit": "µg/L"},
      {"measurement": "uptake efficiency relative to CisPt", "setting": "fold more efficient than CisPt", "value": 50, "unit": "x"},
      {"measurement": "uptake efficiency relative to Pt8", "setting": "fold more efficient than Pt8", "value": 3, "unit": "x"}
    ]}
  ]
}
